We go through 8 compounds from PMC10603992, “Antimicrobial and Adjuvant Potencies of Di-n-alkyl Substituted Diazalariat Ethers” (Antibiotics, 2023).

Counter-ions that a name gives are not always drawn.

The first data set in a line: Complexation of antimicrobials by C10LE (1H-NMR). It counts as physicochemical. The settings on record: 1H-NMR in CDCl3 (identical in CD2Cl2), at least triplicate.
As for `CN(C)c1ccc(O)c2c1C[C@H]1C[C@H]3[C@H](N(C)C)C(O)=C(C(N)=O)C(=O)[C@@]3(O)C(O)=C1C2=O` [Minocycline•HCl], the “Complexation ratio with C10LE” value came to 1.06 ± 0.05. Same read-out and setting: the result for `CN(C)[C@@H]1C(O)=C(C(N)=O)C(=O)[C@@]2(O)C(O)=C3C(=O)c4c(O)ccc(Cl)c4[C@@](C)(O)[C@H]3C[C@@H]12` [Chlortetracycline•HCl] reads “No complexation observed”; that for `CN(C)[C@@H]1C(O)=C(C(N)=O)C(=O)[C@@]2(O)C(O)=C3C(=O)c4c(O)cccc4[C@@](C)(O)[C@H]3[C@H](O)[C@@H]12` [Oxycycline•HCl], 0.997 ± 0.01; that for `C[C@H]1c2cccc(O)c2C(=O)C2=C(O)[C@]3(O)C(=O)C(C(N)=O)=C(O)[C@@H](N(C)C)[C@@H]3[C@@H](O)[C@@H]21` [Doxycycline•HCl], 1.02 ± 0.04.

The next data set in a line: Complexation of antimicrobials by C12LE (NMR extraction). It counts as physicochemical. The settings on record: CHCl3/CDCl3, (drug:C12LE), average of at least three experiments.
`CC1(C)S[C@@H]2[C@H](NC(=O)[C@H](N)c3ccccc3)C(=O)N2[C@H]1C(=O)O` [Ampicillin, ampicillin]: the “Complexation ratio with C12LE” value is on record as 5.1. Still for that read-out and setting: the result for `CO/N=C(\C(=O)N[C@@H]1C(=O)N2C(C(=O)[O-])=C(C[N+]3(C)CCCC3)CS[C@H]12)c1csc(N)n1` [Cefepime, cefepime] reads “no complexation”. `CN(C)[C@@H]1C(O)=C(C(N)=O)C(=O)[C@@]2(O)C(O)=C3C(=O)c4c(O)ccc(Cl)c4[C@@](C)(O)[C@H]3C[C@@H]12` [Chlortetracycline•HCl]: the “Complexation ratio with C12LE” value is on record as “failed to complex”. For `CC1(C)S[C@@H]2[C@H](NC(=O)Cc3ccccc3)C(=O)N2[C@H]1C(=O)O` [Penicillin G, penicillin G], the “Complexation ratio with C12LE” value is 7.1.

In the case of `NC[C@H]1O[C@H](O[C@H]2[C@H](O)[C@@H](O[C@H]3O[C@H](CO)[C@@H](O)[C@H](N)[C@H]3O)[C@H](N)C[C@@H]2N)[C@H](O)[C@@H](O)[C@@H]1O` [Kanamycin, kanamycin], the “Complexation ratio with C12LE” value is “no complexation”.
